The subject of the series is Tal7 (His-Tal7) (Xanthomonas oryzae pv. oryzicola RS105). The series can be described thus: EMSA. The settings on record: unlabeled self-competition 5x, 20x, 100x; recombinant protein; protein details: N-terminal His (pET30a); label: 3' biotin. On the technique in general: A gel shift assay detects complexes by their altered migration in electrophoresis.

We go through two sequences from article PMC5505973.

For at least one entry, the source does not settle the construct or the ends of the probe.

Take “AGATAAAAGCGAAACCCTCCCTCCCCT (double strand) [12g42970A]”: the binding result is reported as “binds”.
Take “GTATACAAAGAGAACGCATCCCCCCAT (double strand) [09g29100A]”: the binding result is “binds”.
